Source: patent US8742158B2, “Protease inhibitors” (TaiMed Biologics, Inc., priority 2006, dated 2014)
Read-outs that look alike come from different tables or passages of the source.

How the values were obtained:
[1] = target: HIV-1 Protease (Human immunodeficiency virus type 1 group M subtype B (isolate HXB2) (HIV-1), UniProt P04585); test: Enzymatic (FRET fluorometric) assay for determining the inhibition constant (Ki) of compounds targeting the HIV protease; settings: for IC50: read-out: IC50 ENZYME HIV-1 Protease
[2] = tested on: HIV-1 viral strain NL4-3; test: Anti-viral assay in vitro (MTT, infected MT-4 cells, six days); format: cell-based; settings: read-out: ANTI-HIV-EC50 VIRAL STRAIN NL4-3
Procedure: Anti-Viral and Cytotoxicity Assays In Vitro
• To evaluate the EC50 of our compounds, various drug concentrations are incubated with the infected cell for six days and then the metabolic activity of the cells is monitored by the MTT assay. (See A. J. Japour et al., Antimicrobial Agents and Chemotherapy, 37, 1095-1101, 1993 and R. Pauwels et al. Journal of Virological Methods, 20, 309-321, 1988) • We use the laboratory viral strain NL4.3 as wild type virus and the cell line used is MT-4 which is a T-cell line highly sensitive to HIV-1. We also use some WT clinical strains. To address the resistance issue we assay the inhibitors with NL4.3 mutants which are designed to be resistant to specific commercially available inhibitors. • The same MTT assay is used to evaluate the CCIC50 (cell culture of IC50) of our compounds except that the virus is omitted.

[3] = read-out: KIGRAPHIC ENZYME HIV-1 Protease, Ki determined graphically
[4] = read-out: KI-CALC ENZYME HIV-1 Protease, calculated Ki

COC(=O)N[C@H](C(=O)NCCCC[C@@H](C(=O)O)N(CC(C)C)S(=O)(=O)c1ccc(N)cc1)C(c1ccccc1)c1ccccc1
IC50 [1]: 1.08 nM | Ki [1, 3]: 0.79 nM | EC50 [2]: > 50000 nM

CC(C)CN(C(CO)CCCCNC(=O)C(NS(=O)(=O)c1ccccc1)C(c1ccccc1)c1ccccc1)S(=O)(=O)c1ccc(N)cc1 (stereo not shown)
IC50 [1]: 0.436 nM | Ki [1, 4]: < 3.8 nM | Ki [1, 3]: 0.492 nM | EC50 [2]: 61 nM

CC(C)CN(C(CO)CCCCNC(=O)C(Cc1ccccc1Br)NC(=O)c1cccnc1)S(=O)(=O)c1ccc(N)cc1 (stereo not shown)
IC50 [1]: 0.372 nM | Ki [1, 3]: 0.119 nM | EC50 [2]: 58 nM

COc1ccc(S(=O)(=O)NC(Cc2ccc3ccccc3c2)C(=O)NCCCCC(CO)N(CC(C)C)S(=O)(=O)c2ccc(N)cc2)cc1OC (stereo not shown)
Ki [1, 4]: 12.5 nM

CC(C)CN(C(CO)CCCCNC(=O)C(Cc1ccccc1Br)NC(=O)c1ccccn1)S(=O)(=O)c1ccc(N)cc1 (stereo not shown)
IC50 [1]: 0.615 nM | Ki [1, 3]: 0.429 nM | EC50 [2]: 197 nM

COC(=O)NC(C(=O)NCCCCC(CO)N(CC(C)C)S(=O)(=O)c1ccc2c(c1)CCO2)C(c1ccccc1)c1ccccc1 (stereo not shown)
EC50 [2]: 151 nM

CC(C)CN(C(CO)CCCCNC(=O)C(Cc1cccc2ccccc12)NC(=O)N1CCOCC1)S(=O)(=O)c1ccc2c(c1)CCO2 (stereo not shown)
IC50 [1]: 0.995 nM | Ki [1, 4]: < 3.8 nM | Ki [1, 3]: 0.788 nM | EC50 [2]: 524 nM

CC(C)CN(C(CO)CCCCNC(=O)C(Cc1cccc2ccccc12)NC(=O)N1CCOCC1)S(=O)(=O)c1ccc2c(c1)OCCO2 (stereo not shown)
IC50 [1]: 2.02 nM | Ki [1, 4]: < 3.8 nM | EC50 [2]: > 50000 nM

CC(C)CN(C(CO)CCCCNC(=O)C(Cc1ccc2ccccc2c1)NS(=O)(=O)c1ccc2c(c1)OCCN2C)S(=O)(=O)c1ccc(N)cc1 (stereo not shown)
IC50 [1]: 4.95 nM | Ki [1, 4]: 5.1 nM | EC50 [2]: 0.162 nM

Cc1cn(CC(=O)NC(Cc2ccc3ccccc3c2)C(=O)NCCCCC(CO)N(CC(C)C)S(=O)(=O)c2ccc(N)cc2)c(=O)[nH]c1=O (stereo not shown)
IC50 [1]: 0.878 nM | Ki [1, 4]: < 3.8 nM | Ki [1, 3]: 0.788 nM | EC50 [2]: 1380 nM

CC(C)CN(C(CO)CCCCNC(=O)C(NC(=O)NCc1cccnc1)C(c1ccccc1)c1ccccc1)S(=O)(=O)c1ccc(N)cc1 (stereo not shown)
IC50 [1]: 0.465 nM | Ki [1, 4]: < 3.8 nM | Ki [1, 3]: 0.473 nM | EC50 [2]: 171 nM

CC(C)CN(C(CO)CCCCNC(=O)C(Cc1ccc2ccccc2c1)NS(=O)(=O)c1cccs1)S(=O)(=O)c1ccc(N)cc1 (stereo not shown)
Ki [1, 4]: 7.9 nM | EC50 [2]: 3000 nM

CC(C)CN([C@@H](CCCCNC(=O)[C@H](Cc1cccc2ccccc12)NC(=O)N1CCOCC1)C(N)=O)S(=O)(=O)c1ccc(N)cc1
EC50 [2]: 70 nM

Cc1cnc(C(=O)NC(Cc2ccccc2Br)C(=O)NCCCCC(CO)N(CC(C)C)S(=O)(=O)c2ccc(N)cc2)cn1 (stereo not shown)
IC50 [1]: 0.836 nM | Ki [1, 4]: < 3.8 nM | Ki [1, 3]: 0.491 nM | EC50 [2]: 135 nM

CC(C)CN(C(CO)CCCCNC(=O)C(Cc1ccc2ccccc2c1)NS(=O)(=O)c1ccc(F)cc1F)S(=O)(=O)c1ccc(N)cc1 (stereo not shown)
Ki [1, 4]: 54.6 nM

CC(C)CN(C(CO)CCCCNC(=O)C(Cc1ccc2ccccc2c1)NS(=O)(=O)c1ccccc1)S(=O)(=O)c1ccc(N)cc1 (stereo not shown)
Ki [1, 4]: 16.5 nM | EC50 [2]: 3200 nM
